Measurements reported in PubChem BioAssay AID1259414 (Drosophila RNAi Screening Center, 2018).
Assay: 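Fly genes that alter Wolbachia amount inside host cells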 (primary screen). Cells: Drosophila JW18 cells infected with Wolbachia. Reagents: long dsRNA against Drosophila genes, 0.25 µg dsRNA per well of a 384-well plate. Time to read-out: 5 days. Conditions: cells persistently infected with Wolbachia before knock-down; no added drug. Detection: 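Automated imaging of bacterial rRNA staining divided by host cell count, reported as plate-normalised robust z-score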. Scale: Wolbachia per cell robust z: higher = more Wolbachia per host cell than the plate typical. Active means: 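Active if absolute robust z reaches 1.5 in two or more of three replicates, leaving out multi- or no-target dsRNAs, genes unexpressed in JW18 and A1 wells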.
The screen tested about 24,000 reagents; shown is an unselected part of those that have a named target and a result. Of all reagents, about 1,210 (5%) got an active call. 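Inactive calls also include excluded dsRNAs with several or no targets, genes unexpressed in JW18, and well A1, regardless of score.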 A number with no mark means an inactive call. A plus sign joins genes that one reagent is predicted to hit. No sequences are given here.

Target gene,PubChem SID,"Wolbachia per cell robust z, rep 1","Wolbachia per cell robust z, rep 2","Wolbachia per cell robust z, rep 3"
CG8531 (GeneID 36584),SID104187001,0.489,0.0262,0.53
ImpE3 (GeneID 48239),SID104196508,0.262,-1.3,-1.25
CG32507 (GeneID 318060),SID104200213,1.03,-0.3,-0.809
CG14691 (GeneID 41287),SID104194706,-1.35,-0.0444,-7.93
CG14691 (GeneID 41287),SID104206501,-0.0525,-0.754,-1.19
Spn77Bc + Spn77Bb,SID104191585,-0.268,-0.478,-0.675
Alg2 (GeneID 38374),SID104188090,0.253,0.738,0.283
CG34310 (GeneID 5740536),SID104216499,-4.37 (active),-0.9,-1.81
CR10102 (GeneID 12798454),SID104185755,-0.276,0.411,-1.91
CG9632 (GeneID 41926),SID104196320,-0.399,-6.1,0.541
lncRNA:CR33987 (GeneID 3885608),SID104204623,-2.22,-0.658,0.215
CG14086 (GeneID 40100),SID104189882,-0.823,-0.41,-2.12
CG9717 (GeneID 43636),SID104196335,0.431,0.564,-0.453
CG31266 (GeneID 42071),SID104195539,-0.0984,0.305,0.606
ac (GeneID 30981),SID104198526,-1.31,-0.227,-0.0823
ac (GeneID 30981),SID104203648,-0.573,0.266,-0.435
Muc30E (GeneID 2768931),SID104180893,0.833,0.675,0.611
Muc30E (GeneID 2768931),SID104207425,-1.01,-0.00966,0.491
Ppa (GeneID 37602),SID104184390,1.07,0.551,0.173
Ppa (GeneID 37602),SID104207244,-3.88,-0.417,0.0216
CG9630 (GeneID 40974),SID104196319,0.732,1.49,0.968
CG18675 (GeneID 50169),SID104188328,-7.94,-1.19,-0.393
CG6414 (GeneID 31352),SID104198193,0.561,-1.35,0.62
Prosbeta5 (GeneID 45269),SID104187309,0.569,0.74,0.562
Prosbeta5 (GeneID 45269),SID104207483,1.3 (active),2.55,2.55
CG32026 (GeneID 317829),SID104188742,0.155,0.45,-1.02
CG32026 (GeneID 317829),SID104205928,0.811,0.634,-0.204
Lsp1beta (GeneID 33274),SID104180549,-0.852,-8.51,1.16
Lsp1beta (GeneID 33274),SID104203491,-0.0889,-0.919,-1.65
CG18273 (GeneID 30991),SID104197942,-4.51,1.07,0.728
CG18273 (GeneID 30991),SID104198297,-3.78,0.073,-0.191
CG6071 (GeneID 39308),SID104190371,1.06,-0.19,-0.684
CG31323 (GeneID 318682),SID104194693,-3.7,1.03,0.791
CG9270 (GeneID 35366),SID104182974,-0.364,-0.464,1.12
CG42559 + CG42560,SID104201509,-1.53,-0.0538,-0.975
zf30C (GeneID 34292),SID104183433,0.551,-1.19,1.65
mRpS21 (GeneID 318249),SID104192757,-0.288,-0.807,-0.314
mRpS21 (GeneID 318249),SID104201131,-0.189,-1.31,-1.54
mRpS21 (GeneID 318249),SID104208386,0.284,-0.439,0.916
GATAe (GeneID 41945),SID104202566,0.865,1.17,0.883
FASN2 (GeneID 117361),SID104179959,-1.08,-1.15,-0.575
FASN2 (GeneID 117361),SID104180402,-0.21,-0.528,-1.78
CG13101 (GeneID 34221),SID104181993,-0.0912,0.523,-0.11
CG33679 (GeneID 3772494),SID104216488,-0.771,-6.15,-2.11
hll (GeneID 34822),SID104181736,0.502,0.277,0.786
Sara (GeneID 44263),SID104184445,-1.08,-0.907,-1.14
CG11630 (GeneID 35429),SID104183488,1.36,1.16,-1.66
CR31822 (GeneID 10178843),SID104181302,0.81,-0.0821,-0.584
Ir40a (GeneID 35449),SID104183524,0.129,-0.0714,-0.296
Ir40a (GeneID 35449),SID104183525,0.629,-3.03,1.26
betaTub56D (GeneID 37238),SID104187375,1.79,0.529,1.31
betaTub56D (GeneID 37238),SID104202775,0.994,1.21,1.81
Jhbp2 (GeneID 40612),SID104192084,-0.407,0.199,-0.407
CG2540 (GeneID 32216),SID104199648,0.758,-0.159,0.0659
CSN1b (GeneID 40063),SID104190900,0.0923,1.26,0.628
CG17652 (GeneID 33353),SID104180303,0.505,-2.09,0.496
Rrp4 (GeneID 37731),SID104184226,-0.0795,0.153,-0.855
Rrp4 (GeneID 37731),SID104208087,0.396,1.52,0.403
Shc (GeneID 44052),SID104191076,-1.1,0.218,0.247
jar (GeneID 42889),SID104196766,-1.18,0.52,-0.284
jar (GeneID 42889),SID104218288,-1.7,0.178,0.841
CG6287 (GeneID 34554),SID104182739,0.122,-1.1,-1.48
CG6287 (GeneID 34554),SID104206051,-1.29,-0.392,-1.04
SCCRO3 (GeneID 36426),SID104186151,0.603,-0.094,1.26
SCCRO3 (GeneID 36426),SID104204953,1.08,1.93,-0.216
sha (GeneID 36213),SID104186123,-3.61,-3.42,-0.872
CG2145 (GeneID 32027),SID104199627,-1.94,-0.428,-0.768
CG2145 (GeneID 32027),SID104206108,-0.766,-1.13,-0.284
